Pooled drug test results. Numbers come from NIAID ChemDB, via PubChem.

Common to all: toxicity to cultured cells; cells: MRC-5; endpoint: CC50

An empty or dashed field is not shown. CCn is the concentration with n% toxicity to the cells. Lines come from different laboratories, so protocols vary.

SMILES,method,result
CC(O)C\C=C/C=C\C=C\CCCCCCc1cccc(O)c1O,WST,49.58 µM
O=Cc1ccc(OCCC2CCN(c3ccc(Cl)nn3)CC2)cc1,visual reading,30 µg/mL
CC(O)C/C=N/NC(=O)C(C)Oc1ccc2ncccc2c1,absorbance,>512 µM
O=CN(O)CCCP(=O)(O)O,fluorescence,>62 µM
CC(Oc1ccc2ncccc2c1)C(=O)N/N=C/c1ccc(F)cc1,absorbance,>512 µM
CCO/N=C/c1cc(C)c(OCCC2CCN(c3ccc(C)nn3)CC2)cc1C,neutral red,>0.1 µg/mL
Cc1cc(O)c2c(c1)C(=O)c1cc(O)cc(O)c1C2=O,-,9.6 µM
CCO/N=C/c1ccc(OCCC2CCN(c3ccc(Cl)nn3)CC2)cc1,visual reading,>1 µg/mL
CC(Oc1ccc2ncccc2c1)C(=O)N/N=C/c1cccc([N+](=O)[O-])c1,absorbance,>512 µM
C/C=C\C=C\C/C=C\CCCCCCCc1cccc(O)c1O,WST,7.58 µM
C=C(C)[C@]12C[C@@H](C)[C@@]34OC(CCCCCCCCCCC)(O[C@@H]1[C@H]3[C@@H]1O[C@]1(CO)[C@@H](O)[C@]1(O)C(=O)C(C)=C[C@H]14)O2,MTS,5.7 µM
COc1cc(C[C@H]2C(=O)OC[C@@H]2Cc2cc(OC)c3c(c2)OCO3)cc(OC)c1OC,MTT,>50 µg/mL
N#C/C(=C/c1ccncc1)c1csc2ccccc12,visual reading,>32 µg/mL
CCCCCCCCCCCCSCC(COP(=O)([O-])OCC[N+](C)(C)C)OCCCCCCCCC(=O)OCC(=O)OC[C@H]1O[C@@H](n2cc(C)c(=O)[nH]c2=O)C[C@@H]1N=[N+]=[N-],neutral red,>100 µM
CCO/N=C/c1ccc(OCCC2CCN(c3ccc(C)nn3)CC2)cc1,visual reading,10 µg/mL
COc1cc(C[C@H]2C(=O)OC[C@@H]2Cc2ccc3c(c2)OCO3)cc(OC)c1OC,MTT,11.9 µg/mL
Cc1cn([C@H]2C[C@H](N=[N+]=[N-])[C@@H](CO)O2)c(=O)[nH]c1=O,neutral red,>100 µM
CN(O)C(=O)CCC(c1ccccc1)P(=O)(O)O,fluorescence,>60 µM
COc1cc(C2c3cc4c(cc3C[C@H]3COC(=O)[C@H]23)OCO4)cc(OC)c1OC,MTT,>10 µg/mL
ClCc1csc2ccccc12,visual reading,>10 µg/mL
CC(Oc1ccc2ncccc2c1)C(=O)N/N=C/c1ccccc1Cl,absorbance,>512 µM
Cc1cc(O)c2c(c1)C(=O)c1cccc(O)c1C2=O,-,>39.3 µM
Nc1nc2c(ncn2COCCO)c(=O)[nH]1,MTT,>350 µM
O=C(O)c1cc(O)c2c(c1)C(=O)c1cccc(O)c1C2=O,-,12.9 µM
Cc1ccccc1/C=N/NC(=O)C(C)Oc1ccc2ncccc2c1,absorbance,>512 µM
C=C(C)[C@]12C[C@@H](C)[C@@]34OC(CCCCCCCCC)(O[C@@H]1[C@H]3[C@@H]1O[C@]1(CO)[C@@H](O)[C@]1(O)C(=O)C(C)=C[C@H]14)O2,MTS,5.1 µM
O=C1c2ccc(O)c(O)c2C(=O)c2c(O)ccc(O)c21,-,12.5 µM
CC(Oc1ccc2ncccc2c1)C(=O)N/N=C/c1ccc(Cl)c(Cl)c1,absorbance,>512 µM
Cc1cc(O)c2c(c1)Cc1cc(O)cc(O)c1C2=O,-,10.1 µM
CO/N=C/c1ccc(OCCC2CCN(c3ccc(Cl)nn3)CC2)c(C)c1,visual reading,>1 µg/mL

For reference, 4 entries again:

{"SMILES": "CO/N=C/c1ccc(OCCC2CCN(c3ccc(Cl)nn3)CC2)c(C)c1", "method": "visual reading", "result": ">1 µg/mL"}
{"SMILES": "CCO/N=C/c1ccc(OCCC2CCN(c3ccc(C)nn3)CC2)cc1", "method": "visual reading", "result": "10 µg/mL"}
{"SMILES": "CC(O)C\\C=C/C=C\\C=C\\CCCCCCc1cccc(O)c1O", "method": "WST", "result": "49.58 µM"}
{"SMILES": "CN(O)C(=O)CCC(c1ccccc1)P(=O)(O)O", "method": "fluorescence", "result": ">60 µM"}